Compound potency records, mixed from different reports. Data source: NIAID ChemDB in PubChem.

All rows: tests in culture; organism: Candida albicans; endpoint: MIC50

An empty or dashed field is not shown. Lines come from different laboratories, so protocols vary. a–b is a range or a potency band. MIC50, MIC90 and the like: level of inhibition, or share of isolates inhibited.

compound	strain or isolate	read by	setting	value
Nc1[nH]c(=O)ncc1F	Fluconazole-resistant			0.12 µg/mL
COc1ccc(NC2=C(S(=O)c3ccc(O)cc3)C(=O)c3ccccc3C2=O)cc1				0.53–1 µg/mL
N=C(N)N1CCN(Cc2cccnc2SCc2ccc(Br)cc2)CC1	SC5314 CAI			75 µg/mL
O=C1O/C(=C\c2ccc(OCC(O)(Cn3cncn3)c3ccc(F)cc3F)cc2)C(c2ccc(F)cc2F)=C1c1ccc(Cl)cc1	ATCC 24433	broth dilution		4 µg/mL
N=C(N)N1CCN(Cc2cccnc2SCc2c(F)cccc2F)CC1	SC5314 CAI			>100 µg/mL
Fc1ccc(C(c2cccc3ccccc23)n2ccnc2)cc1	23 strains			8 µg/mL
O=[N+]([O-])Sc1c(S(=O)c2ccccc2)c(O)c2ccccc2c1O				>3 µg/mL
CC(C)CCC[C@@H](C)[C@H]1CC[C@H]2[C@@H]3[C@@H](O)C=C4C[C@@H](O)CC[C@]4(C)[C@H]3CC[C@]12C	CIP 1663-86			>50 µg/mL
Nc1[nH]c(=O)ncc1F	50 isolates			0.16 µg/mL
Cc1ccc(SC2=C(Sc3ccc(C)cc3)C(=O)c3ccccc3C2=O)cc1				>3 µg/mL
Cc1nc(NC(=O)c2ccc(F)cc2)sc1C(=O)N/N=C1/S/C(=C/c2ccccc2[N+](=O)[O-])C(=O)N1c1ccccc1	MTCC 227			500 µg/mL
C[C@H]1[C@H](O)[C@@H](C)/C=C/C=C/C=C/C=C/C=C/C=C/C=C/[C@H](O[C@@H]2O[C@H](C)[C@@H](O)[C@H](N)[C@@H]2O)C[C@@H]2O[C@](O)(C[C@@H](O)C[C@@H](O)CC[C@H](O)[C@@H](O)C[C@@H](O)CC(=O)O[C@H]1C)C[C@H](O)[C@H]2C(=O)O	10 isolates azole-resistant			0.05 µg/mL
Clc1ccc(C(c2ccc3ccccc3c2)n2ccnc2)cc1	23 strains			4 µg/mL
CC[C@@H]([C@H](C)O)n1ncn(-c2ccc(N3CCN(c4ccc(OC[C@@H]5CO[C@@](Cn6cncn6)(c6ccc(F)cc6F)C5)cc4)CC3)cc2)c1=O	84 isolates			0.015 µg/mL
CCCCCCCCCCCCCCCC(=O)NC1CCC(O)NC(=O)C2C(O)C(C)CN2C(=O)C(C(O)CC(N)=O)NC(=O)C(C(O)Cc2ccc(O)c(OS(=O)(=O)O)c2)NC(=O)C2CC(O)CN2C(=O)C(C(C)O)NC1=O	FP629			0.008 µg/mL
CCC(C)n1ncn(-c2ccc(N3CCN(c4ccc(OC[C@H]5CO[C@](Cn6cncn6)(c6ccc(Cl)cc6Cl)O5)cc4)CC3)cc2)c1=O				0.063 µg/mL
O=c1on(Cc2ccccc2)cc1-c1ccc(Cl)c(Cl)c1	ATCC 90028			>32 µg/mL
Cc1nc(NC(=O)c2ccc(F)cc2)sc1C(=O)N/N=C1/S/C(=C/c2ccccc2)C(=O)N1c1ccccc1	MTCC 227			1000 µg/mL
C[C@H]1[C@H](O)[C@@H](C)/C=C/C=C/C=C/C=C/C=C/C=C/C=C/[C@H](O[C@@H]2O[C@H](C)[C@@H](O)[C@H](N)[C@@H]2O)C[C@@H]2O[C@](O)(C[C@@H](O)C[C@@H](O)CC[C@H](O)[C@@H](O)C[C@@H](O)CC(=O)O[C@H]1C)C[C@H](O)[C@H]2C(=O)O	34 isolates			0.5 µg/mL
Cc1ccc(-c2c3c(N)c4c(nc3nc3c2c(C)nn3-c2ccccc2)CCC4)cc1	CCC 128	broth dilution / absorbance		31.2 µg/mL
c1ccc(C(c2cccc3ccccc23)n2ccnc2)cc1	23 strains			8 µg/mL
CC(C)(C)C(=O)OCC1C=C(c2ccc(Cl)c(Cl)c2)C(=O)O1	ATCC 90028			2 µg/mL
CCCCCOc1ccc(-c2ccc(-c3ccc(C(=O)N[C@H]4C[C@@H](O)[C@@H](O)NC(=O)[C@@H]5[C@@H](O)[C@@H](C)CN5C(=O)[C@H]([C@H](C)O)NC(=O)[C@H]([C@H](O)[C@@H](O)c5ccc(O)cc5)NC(=O)[C@@H]5C[C@@H](O)CN5C(=O)[C@H]([C@H](C)O)NC4=O)cc3)cc2)cc1	10 strains (fluconazole-resistant)			0.06 µg/mL
CCC(C)n1ncn(-c2ccc(N3CCN(c4ccc(OC[C@H]5CO[C@](Cn6cncn6)(c6ccc(Cl)cc6Cl)O5)cc4)CC3)cc2)c1=O	1992 isolates			0.03 µg/mL
C[C@@H](c1ncncc1F)[C@](O)(Cn1cncn1)c1ccc(F)cc1F				0.008 µg/mL
Cc1nc(NC(=O)c2ccc(F)cc2)sc1C(=O)N/N=C1/S/C(=C/c2ccccc2O)C(=O)N1c1ccccc1	MTCC 227			100 µg/mL
COc1ccc(SC2=C(Sc3ccc(OC)cc3)C(=O)c3ccccc3C2=O)cc1				>3 µg/mL
CCC(C)n1ncn(-c2ccc(N3CCN(c4ccc(OC[C@H]5CO[C@](Cn6cncn6)(c6ccc(Cl)cc6Cl)O5)cc4)CC3)cc2)c1=O	10 isolates azole-resistant			0.4 µg/mL
CN1CCN(c2ccc3nc(-c4ccc5nc(-c6ccc(O)cc6)[nH]c5c4)[nH]c3c2)CC1	RO109			7 µM
Cc1ccc(-c2c3c(N)c4c(nc3nc3c2c(C)nn3-c2ccccc2)CCCCC4)cc1	CCC 127	broth dilution / absorbance		31.2 µg/mL
N=C(N)N1CCN(Cc2cccnc2SCc2cc(F)ccc2F)CC1	SC5314 CAI			>100 µg/mL
CC(=O)N1CCN(c2ccc(OC[C@H]3CO[C@](Cn4ccnc4)(c4ccc(Cl)cc4Cl)O3)cc2)CC1	50 isolates			0.01 µg/mL
Cc1nc(NC(=O)c2ccc(F)cc2)sc1C(=O)N/N=C1/S/C(=C/c2ccc(F)cc2)C(=O)N1c1ccccc1	MTCC 227			250 µg/mL
Cc1ccc(-c2c3c(N)c4c(nc3nc3c2c(C)nn3-c2ccccc2)CCCC4)cc1	CCC 130	broth dilution / absorbance		15.6 µg/mL
O=C1OC(CO)C=C1c1ccc(Cl)c(Cl)c1	ATCC 90028			32 µg/mL
CC(C)CCC[C@@H](C)[C@H]1CCC2C3CC(=O)C4C[C@@H](O)CC[C@]4(C)C3CC[C@@]21C	CIP 1663-86			>50 µg/mL
CCC(C)n1ncn(-c2ccc(N3CCN(c4ccc(OC[C@H]5CO[C@](Cn6cncn6)(c6ccc(Cl)cc6Cl)O5)cc4)CC3)cc2)c1=O	32 strains			0.06 µg/mL
CCCCCCCCOc1ccc(-c2ccc(C(=O)NC3CC(NCCN)CNC(=O)[C@@H]4[C@@H](O)[C@@H](C)CN4C(=O)[C@@H](CO)NC(=O)[C@H]([C@H](O)Cc4ccccc4)NC(=O)[C@@H]4C[C@@H](O)CN4C(=O)[C@H]([C@@H](C)O)NC3=O)cc2)cc1	30 isolates fluconazole-susceptible			0.125 µg/mL
CCC(C)n1ncn(-c2ccc(N3CCN(c4ccc(OC[C@H]5CO[C@](Cn6cncn6)(c6ccc(Cl)cc6Cl)O5)cc4)CC3)cc2)c1=O	50 isolates			0.01 µg/mL
Clc1ccc(C(c2cccc3ccccc23)n2ccnc2)s1	23 strains			2 µg/mL
Clc1ccc(C(Cn2ccnc2)OCc2csc3c(Cl)cccc23)c(Cl)c1	63 isolates	absorbance	48 h	0.5 µg/mL
Cc1nc(NC(=O)c2ccc(F)cc2)sc1C(=O)N/N=C1/S/C(=C/c2ccc([N+](=O)[O-])cc2)C(=O)N1c1ccccc1	MTCC 227			500 µg/mL
CC[C@@H]([C@H](C)O)n1ncn(-c2ccc(N3CCN(c4ccc(OC[C@@H]5CO[C@@](Cn6cncn6)(c6ccc(F)cc6F)C5)cc4)CC3)cc2)c1=O		broth dilution		0.03 µg/mL
O[C@](Cn1cncn1)(Cn1cnc(/C=C/c2ccc(OCC(F)(F)C(F)F)cc2)n1)c1ccc(F)cc1F	50 strains (fluconazole-resistant)			0.25 µg/mL
CC(C)CCC[C@@H](C)[C@H]1CCC2C3C(=O)C=C4CC(=O)CC[C@]4(C)C3CC[C@@]21C	CIP 1663-86			>50 µg/mL
C=C(CF)CN1C[C@H](OC[C@@]23C[C@@H]4[C@H](C)CC[C@H]4[C@@]4(C=O)C[C@@H]2CC(C(C)C)[C@@]34C(=O)O)O[C@H](C)C1	16 isolates/fluconazole resistant			0.008 µg/mL
CC(=O)N1CCN(c2ccc(OC[C@H]3CO[C@](Cn4ccnc4)(c4ccc(Cl)cc4Cl)O3)cc2)CC1	126 strains			0.25 µg/mL
Cc1nc(NC(=O)c2ccc(F)cc2)sc1C(=O)N/N=C1/S/C(=C/c2ccc(Cl)cc2)C(=O)N1c1ccccc1	MTCC 227			500 µg/mL
CC(C)CCC[C@@H](C)[C@H]1CCC2C3C(CC[C@@]21C)[C@@]1(C)CCC(=O)CC1C[C@@H]3O	CIP 1663-86			>50 µg/mL
Cc1ccccc1CSc1ncccc1CN1CCN(C(=N)N)CC1	SC5314 CAI			>100 µg/mL
CC(C)C1C[C@H]2C[C@]3(C=O)[C@@H]4CC[C@@H](C)[C@H]4C[C@@]2(CO[C@H]2CN(C4CC4)C[C@@H](C)O2)[C@]13C(=O)O	16 isolates/fluconazole resistant			0.03 µg/mL
c1csc(C(c2cccc3ccccc23)n2ccnc2)c1	23 strains			16 µg/mL
COc1ccc(/C=C2/S/C(=N/NC(=O)c3sc(NC(=O)c4ccc(F)cc4)nc3C)N(c3ccccc3)C2=O)cc1	MTCC 227			100 µg/mL
C=CCN1C[C@H](OC[C@@]23C[C@@H]4[C@H](C)CC[C@H]4[C@@]4(C=O)C[C@@H]2CC(C(C)C)[C@@]34C(=O)O)O[C@H](C)C1	16 isolates			0.008 µg/mL
CCC(C)CC(C)CCCCCCCCC(=O)N[C@H]1C[C@@H](O)[C@H](NCCN)NC(=O)[C@@H]2[C@@H](O)CCN2C(=O)[C@H]([C@H](O)CCN)NC(=O)[C@H]([C@H](O)[C@@H](O)c2ccc(O)cc2)NC(=O)[C@@H]2C[C@@H](O)CN2C(=O)[C@H]([C@@H](C)O)NC1=O	2453 strains			0.12 µg/mL
Cc1ccccc1/C=C1/S/C(=N/NC(=O)c2sc(NC(=O)c3ccc(F)cc3)nc2C)N(c2ccccc2)C1=O	MTCC 227			100 µg/mL
Nc1ncccc1-c1cc(Cc2ccc(COc3ccccn3)cc2)no1		broth dilution		0.015 µg/mL
COC(/C=C/c1ccccc1)=C1/C(=O)C=C(C)C1=O	Isolate 1 azole-susceptible			0.6 µg/mL
C[C@@H](c1nc(-c2ccc(C#N)cc2)cs1)[C@](O)(Cn1cncn1)c1ccc(F)cc1F				≤0.006 µg/mL
CCCCCCCCCCCCCCCC(=O)NC1CC(O)C(O)NC(=O)C2C(O)C(C)CN2C(=O)C(C(O)CC(N)=O)NC(=O)C(C(O)Cc2ccc(O)c(OS(=O)(=O)O)c2)NC(=O)C2CC(O)CN2C(=O)C(C(C)O)NC1=O	FP633			0.025 µg/mL
N=C(N)N1CCN(Cc2cccnc2SCc2cccc(Cl)c2)CC1	SC5314 CAI			75 µg/mL
C[C@H]1[C@H](O)[C@@H](C)/C=C/C=C/C=C/C=C/C=C/C=C/C=C/[C@H](O[C@@H]2O[C@H](C)[C@@H](O)[C@H](N)[C@@H]2O)C[C@@H]2O[C@](O)(C[C@@H](O)C[C@@H](O)CC[C@H](O)[C@@H](O)C[C@@H](O)CC(=O)O[C@H]1C)C[C@H](O)[C@H]2C(=O)O				0.78 µg/mL
CC(C(O)(Cn1cncn1)c1ccc(F)cc1F)S(C)(=O)=O	52 strains			2 µg/mL
Clc1ccc(C(c2ccc3ccccc3c2)n2ccnc2)s1	23 strains			2 µg/mL

Repeating the final 7 entries:

compound | strain or isolate | read by | setting | value
COC(/C=C/c1ccccc1)=C1/C(=O)C=C(C)C1=O | Isolate 1 azole-susceptible |  |  | 0.6 µg/mL
C[C@@H](c1nc(-c2ccc(C#N)cc2)cs1)[C@](O)(Cn1cncn1)c1ccc(F)cc1F |  |  |  | ≤0.006 µg/mL
CCCCCCCCCCCCCCCC(=O)NC1CC(O)C(O)NC(=O)C2C(O)C(C)CN2C(=O)C(C(O)CC(N)=O)NC(=O)C(C(O)Cc2ccc(O)c(OS(=O)(=O)O)c2)NC(=O)C2CC(O)CN2C(=O)C(C(C)O)NC1=O | FP633 |  |  | 0.025 µg/mL
N=C(N)N1CCN(Cc2cccnc2SCc2cccc(Cl)c2)CC1 | SC5314 CAI |  |  | 75 µg/mL
C[C@H]1[C@H](O)[C@@H](C)/C=C/C=C/C=C/C=C/C=C/C=C/C=C/[C@H](O[C@@H]2O[C@H](C)[C@@H](O)[C@H](N)[C@@H]2O)C[C@@H]2O[C@](O)(C[C@@H](O)C[C@@H](O)CC[C@H](O)[C@@H](O)C[C@@H](O)CC(=O)O[C@H]1C)C[C@H](O)[C@H]2C(=O)O |  |  |  | 0.78 µg/mL
CC(C(O)(Cn1cncn1)c1ccc(F)cc1F)S(C)(=O)=O | 52 strains |  |  | 2 µg/mL
Clc1ccc(C(c2ccc3ccccc3c2)n2ccnc2)s1 | 23 strains |  |  | 2 µg/mL